Experimental data: patent US20120225093A1, “Abrogating HIV-1 Infection via Drug-Induced Reactivation of Apoptosis” (UNIVERSITY OF MEDICINE AND DENTISTRY OF NEW JERSEY, priority 2010, published 2012)

Tests used:
IL-10 = IL-10 secretion by PBMC cultures (cytometric bead array); format: cell-based, human
Procedure: (§1) Uninfected PBMCs were co-incubated with infected PBMC stock in 24-well microplates at 2 ml/well Medium B, at a 10:1 ratio of uninfected-to-infected cells, and a total cell number of 1×10^6. Cultures were maintained and assayed for 6 consecutive days. CPX or Agent P2 was added at the time of inoculation or 12 hr later. Leaving the cell layer undisturbed, half the medium in each well was replenished every day, with concurrent adjustment of compound concentration. On each day during the 6-day experiments, a set of wells was harvested: the cells were processed for determination of viability and apoptosis, and the cell-free supernatants were stored at −80° C. for p24 and viral RNA measurements. Experiments were performed at least in duplicate and repeated at least twice.
(§2) p24 core antigen in the supernatant was quantified by ELISA (Retrotek HIV-1 p24™; ZeptoMetrix Corp.; Buffalo, N.Y.). HIV-1 RNA copy number in the supernatant was determined with a PCR-based and FDA-approved assay (Amplicor HIV-1 Monitor™; Roche Diagnostics Corp.; Indianapolis, Ind.). IFN-γ and IL-10 in the supernatant were determined by cytometric bead array (Human Th1/Th2 Cytokine Kit II™; BD Biosciences Pharmingen, San Jose, Calif.).
(§3) To further assess the cellular effects of CPX, the secretion of interferon (IFN)-γ and interleukin (IL)-10 was measured. […]

IFN-γ = IFN-γ secretion by PBMC cultures (cytometric bead array); format: cell-based, human
Procedure: as §1, §2, §3

## Cc1cc(C2CCCCC2)n(O)c(=O)c1 [CPX, 6-cyclohexyl-1-hydroxy-4-methylpyridin-2[1H]-one]
IL-10; HIV-exposed CPX-treated cells
  initial level of IL-10: 34 pg per 10^6 vital cells
IL-10; uninfected CPX-treated cells
  initial level of IL-10: 40 pg per 10^6 vital cells
IFN-γ; HIV-exposed CPX-treated cells
  initial level of IFN-γ: 657 pg per 10^6 vital cells
IFN-γ; uninfected CPX-treated cells
  initial level of IFN-γ: 634 pg per 10^6 vital cells
